Values from PubChem BioAssay AID624099 (ICCB-Longwood, 2012)
The deposit covers about 21,000 reagents; below is a random part of them. 497 of them (2.4%) were called active. 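Higher z means weaker E2 silencing; only reporter increases were scored, and knock-downs that hurt cell survival may mask genuine repressor factors.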 Reagents against one gene are numbered here.

Assay: 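Human genes that papillomavirus E2 requires to repress the HPV18 LCR promoter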 (primary screen)
Cells: human C33A cervical carcinoma cells (HPV-negative) stably expressing BPV1 E2 and an HPV18 LCR luciferase reporter
Reagents: siRNA pool against human genes, 40 nM
Time to read-out: 72 h
Read-out: 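HPV18 LCR reporter light per well, converted to plate-wise z-scores that exclude control wells, and averaged over triplicate plates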
Reading the numbers: mean z-score and z-score: higher = stronger reporter signal, weaker E2 silencing
Call rule: 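Mean z ≥ 2 together with z ≥ 2 in two or more of the three replicates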

gene symbol | reagent no. | mean z-score | z-score, replicate A | z-score, replicate B | z-score, replicate C | call
SIGLEC5 | 1 | 1.01 | 1.11 | 0.95 | 0.98 | inactive
LAMA2 | 1 | 1 | 1.06 | 1.22 | 0.73 | inactive
PTBP2 | 1 | 0.16 | 0.07 | 0.27 | 0.14 | inactive
GPR50 | 1 | 2.01 | 2.25 | 1.8 | 1.97 | inactive
FRMD6 | 1 | -0.07 | 0.23 | -0.06 | -0.38 | inactive
ZNF569 | 1 | 0.73 | 1.29 | 0.2 | 0.71 | inactive
MMP7 | 1 | 0.89 | 0.95 | 0.64 | 1.06 | inactive
TMEM187 | 1 | -1.54 | -1.54 | -1.39 | -1.68 | inactive
STIP1 | 1 | 3.03 | 2.85 | 3.14 | 3.11 | active
LINC02609 | 1 | 0.53 | -0.26 | 0.96 | 0.9 | inactive
RPS16 | 1 | -1.97 | -1.87 | -1.82 | -2.2 | inactive
FAR1 | 1 | -0.97 | -1.24 | -0.86 | -0.81 | inactive
LOC401215 (retired record) | 1 | 0.06 | 0.23 | -0.09 | 0.03 | inactive
GPR148 | 1 | 0.45 | 0.73 | 0.15 | 0.48 | inactive
ZNF641 | 1 | -0.33 | -0.23 | -0.32 | -0.45 | inactive
AP1S3 | 1 | 1.53 | 1.6 | 1.47 | 1.52 | inactive
TBC1D1 | 1 | 0.87 | 1.02 | 0.71 | 0.87 | inactive
TBC1D1 | 2 | -0.49 | -0.44 | -0.3 | -0.72 | inactive
ASB9 | 1 | 1.34 | 0.9 | 1.64 | 1.48 | inactive
GRIPAP1 | 1 | 1.77 | 2 | 1.58 | 1.74 | inactive
EXOC7 | 1 | 0.39 | 0.17 | 0.53 | 0.48 | inactive
C8orf44 | 1 | -1.1 | -0.91 | -1.14 | -1.26 | inactive
RPS8 | 1 | -1.82 | -1.84 | -1.95 | -1.67 | inactive
TTLL10 | 1 | 0.95 | 0.87 | 0.97 | 1 | inactive
IGF2 | 1 | 0.23 | 0.12 | 0.32 | 0.24 | inactive
WDR48 | 1 | -0.73 | -0.8 | -1.27 | -0.11 | inactive
RNF122 | 1 | 1.74 | 1.89 | 1.96 | 1.37 | inactive
NSUN2 | 1 | 0.16 | 0.59 | 0.11 | -0.22 | inactive
GSAP | 1 | -0.2 | -0.3 | 0.1 | -0.4 | inactive
GSAP | 2 | 0.31 | 0.26 | 0.22 | 0.45 | inactive
SFTPA1 | 1 | 0.09 | 0.12 | 0.23 | -0.08 | inactive
PPP2R3A | 1 | 0.43 | 0.56 | 0.48 | 0.25 | inactive
STK16 | 1 | -0.2 | -0.03 | -0.16 | -0.4 | inactive

The list goes on; the last 3 above are carried over.
gene symbol | reagent no. | mean z-score | z-score, replicate A | z-score, replicate B | z-score, replicate C | call
SFTPA1 | 1 | 0.09 | 0.12 | 0.23 | -0.08 | inactive
PPP2R3A | 1 | 0.43 | 0.56 | 0.48 | 0.25 | inactive
STK16 | 1 | -0.2 | -0.03 | -0.16 | -0.4 | inactive
LYZL6 | 1 | -0.82 | -1.13 | -0.84 | -0.5 | inactive
ATP6V0E1 | 1 | -0.11 | -0.17 | -0.03 | -0.14 | inactive
LOC389228 (retired record) | 1 | 0.47 | -0.07 | 0.82 | 0.65 | inactive
NKX2-2 | 1 | 0 | 0.01 | -0.17 | 0.16 | inactive
IFITM3 | 1 | 1.05 | 1.05 | 1.2 | 0.89 | inactive
CALHM1 | 1 | 0.42 | 0.37 | 1.1 | -0.21 | inactive
LINC02167 | 1 | 0.32 | -0.08 | 0.67 | 0.36 | inactive
GPR180 | 1 | -0.77 | -0.61 | -0.87 | -0.84 | inactive
UPF3A | 1 | 0.12 | 0.39 | -0.02 | 0 | inactive
CDC5L | 1 | 0.44 | 0.39 | 0.73 | 0.21 | inactive
ACTG1 | 1 | -0.39 | -0.36 | -0.47 | -0.33 | inactive
PPAT | 1 | -0.56 | -0.51 | -0.77 | -0.41 | inactive
GAS1 | 1 | 0.16 | 0.04 | 0.16 | 0.29 | inactive
KMT2A | 1 | -1.05 | -0.72 | -0.98 | -1.45 | inactive
KMT2A | 2 | -0.01 | 0.1 | -0.04 | -0.07 | inactive
EVX1 | 1 | 1.1 | 1.35 | 1.33 | 0.61 | inactive
MROH7 | 1 | -0.64 | -0.73 | -0.54 | -0.64 | inactive
CELA1 | 1 | 0.57 | 0.72 | 0.63 | 0.36 | inactive
ABCC10 | 1 | 1.29 | 1.58 | 1.09 | 1.2 | inactive
CABCOCO1 | 1 | -0.77 | -0.93 | -0.75 | -0.62 | inactive
RBP7 | 1 | 0.27 | 0.13 | 0.59 | 0.09 | inactive
TPSB2 | 1 | -0.25 | -0.03 | -0.63 | -0.08 | inactive
TIGD1 | 1 | -0.25 | -0.18 | -0.06 | -0.51 | inactive
KCTD8 | 1 | 0.44 | 0.03 | 0.45 | 0.86 | inactive
